± gives the standard deviation of the averaged measurements.
Tested on: HepaRG
Experiment: LDH release cytotoxicity, % of total lysis control; higher = more cytotoxic
Conditions: 48 h
Outline: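 Single-lot HepaRG cells on collagen I-coated 96-well plates were exposed for 48 h in duplicate, in serum-free induction medium with 0.5% DMSO, to eight-point half-log series (test chemicals top 100 µM). Total lysis wells received 0.1% Triton X, and LDH leakage into 50 µL spent medium was read as resorufin fluorescence (CytoTox-ONE, Tecan Safire). Percent cytotoxicity was normalized to on-plate vehicle and total lysis controls and averaged over the duplicates.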

| SMILES | LDH release cytotoxicity (0.03162 µM) | LDH release cytotoxicity (0.1 µM) | LDH release cytotoxicity (0.3162278 µM) | LDH release cytotoxicity (1 µM) | LDH release cytotoxicity (3.16228 µM) | LDH release cytotoxicity (10 µM) | LDH release cytotoxicity (31.6228 µM) | LDH release cytotoxicity (100 µM) |
| --- | --- | --- | --- | --- | --- | --- | --- | --- |
| O=C1C2CC=CCC2C(=O)N1SC(Cl)(Cl)C(Cl)Cl (stereo unspecified) [Captafol] | -0.403 ± 0.24% | -1.07 ± 0.25% | -0.768 ± 0.056% | -0.614 ± 0.15% | -1.14 ± 0.044% | 0.17 ± 0.35% | 4.69 ± 0.55% | 31.5 ± 2.7% |
| CCCCOP(=O)(OCCCC)OCCCC [Tributyl phosphate] |  |  |  |  | 0.066 ± 0.15% | 0.576 ± 0.17% | 3.52 ± 0.51% |  |

From the supplement of paper PMC7840683
